# In patent publication US20240285753A1 (DUKE UNIVERSITY, published 2024):
# B1: inferred UCA of DH1501.1, DH1501.2 and DH1501.3 (antibody, V domains shown)
# VH: QVQLVQSGAEVKKPGASVKVSCKASGYTFTSYYMHWVRQAPGQGLEWMGIINPSGGSTSYAQKFQGRVTMTRDTSTSTVYMELSSLRSEDTAVYYCARMSRYGAFDIWGQGIMVTVSS
# VL: not shown
# B2: DH1509 (antibody, V domains shown)
# VH: QVQLVESGGGVVQPGRSLRLSCAASGFTLSSHGIHWVRQAPGKGLEWVAVTSFDGRNKKFGDSVKGRFTISRDNSKNTVYLQMNSLRTEDTAVYYCAKDWGDDYSRWYFDLWGRGTLVTVSS
# VL: DIQMTQSPSSLSASVGDRVTITCQASHDITKYLNWYQQKPGRAPKLLIYDASNLKTGVPSRFSGSGSGTDFTFTITSLQPEDLATYYCQQSDVLPITFGQGTRLEIK
# Legend:
# [1] = biological target: HKU-1 spike (2P) (human coronavirus HKU1); test: ELISA, coated antigen, mAb titrated
# [2] = biological target: SHC014 (Bat CoV RsSHC014); test: ELISA, coated spike, mAb titrated
# [3] = biological target: RaTG13 (coronavirus RaTG13); test: ELISA, coated spike, mAb titrated
Binder,EC50 (read off the curve) [1],EC50 (read off the curve) [2],EC50 (read off the curve) [3]
B1,~0.03 µg/mL,–,–
B2,–,~1 µg/mL,~1 µg/mL
